Pooled drug test results. Numbers come from NIAID ChemDB, via PubChem.

All rows: whole-cell or culture tests; species: HIV-1; measure: EC50

ECn: concentration that inhibits the pathogen or its effect by n%. a–b is a range or a potency band. Blank or dashed fields: not listed here. Neighbouring rows are from separate reports.

smiles	strain or isolate	setting	mutations	cells	method	value
CN1c2ccccc2C2C1C=C(C#N)C(=O)N2c1ccc([N+](=O)[O-])cc1	4755-5			HeLa	GFP / fluorescence	0.02 µM
Cc1cc(C(=O)N[C@@]23CC[C@]4(C)C(CCC5[C@@]6(C)CC[C@H](OC(=O)CC(C)(C)C(=O)O)C(C)(C)C6CC[C@]54C)C2=C(C(C)C)C(=O)C3)no1	IIIB	30% human serum		MT-2	RT activity	<0.199 µM
Cc1nc2ccc(Cl)cc2c(-c2ccc3c(c2)OCCO3)c1C(OC(C)C)C(=O)O				C8166	luciferase / reporter gene	<20 µM
C=C(C)CCOc1ccc(-c2cnc(C)c([C@H](OC(C)(C)C)C(=O)O)c2N2CCC(C)(C)CC2)nc1	NL4-3			MT-2	luminescence	0.0007 µM
CCCC(C(=O)O)c1c(C)nc2ccc(Cl)cc2c1-c1ccc(C)cc1C				C8166	luciferase / reporter gene	<20 µM
CCCCN1C(=O)N(Cc2ccc3[nH]nc(N)c3c2)[C@H](Cc2ccccc2)[C@H](O)[C@@H](O)[C@H]1Cc1ccccc1			PR-I84V	MT-2	plaque count	<0.39 µM
CCOC(C(=O)O)c1c(C)nc2ccc(Cl)cc2c1-c1ccc(OC)cc1				C8166	luciferase / reporter gene	<20 µM
Cc1cc(C)c(S(=O)(=O)OCC2OC3OC4C(CO)OC(OC5C(CO)OC(OC6C(CO)OC(OC7C(CO)OC(OC8C(CO)OC(OC9C(C[n+]%10ccccc%10)OC(OC2C(O)C3O)C(O)C9O)C(O)C8O)C(O)C7O)C(O)C6O)C(O)C5O)C(O)C4O)c(C)c1	KK-1(AIDS)			PBMC		382 µg/mL
Cc1occc1C(=S)Nc1ccc(Cl)c(C(=O)OC(C)C)c1	NL4-3		RT-V179D	CEM + CEM-SS	cytopathic effect / XTT	0.6 µM
CCCC(C(=O)O)c1c(C)nc2ccc(Cl)cc2c1-c1ccc(C2CC2)cc1				C8166	luciferase / reporter gene	<20 µM
Cc1occc1C(=S)Nc1ccc(Cl)c(C(=O)OCC(F)(F)F)c1	IIIB			CEM + CEM-SS	cytopathic effect / XTT	0.05 µM
CC(=O)N1CCC(NC(=O)N[C@@]23CC[C@]4(C)C(CCC5[C@@]6(C)CC[C@H](OC(=O)CC(C)(C)C(=O)O)C(C)(C)C6CC[C@]54C)C2=C(C(C)C)C(=O)C3)CC1	IIIB	30% human serum		MT-2	RT activity	<0.199 µM
CCCC(C(=O)O)c1c(C)nc2ccc(Cl)cc2c1-c1ccc(Cl)cc1				C8166	luciferase / reporter gene	<20 µM
CCC1=C(C(=O)OCC2CCCCC2)C(c2cccc(C(=O)O)c2)NC(=O)N1				CEM	p24 / ELISA	>5 µM
N#CC1=CC2Nc3ccccc3C2N(c2ccc([N+](=O)[O-])cc2)C1=O	2AG			HeLa	GFP / fluorescence	1.01 µM
Cc1cccc(C)c1OCCNc1ccc(-c2cnc(C)c([C@H](OC(C)(C)C)C(=O)O)c2N2CCC(C)(C)CC2)cn1	NL4-3			MT-2	luminescence	0.0025 µM
CC(C)C1=C2C3CCC4[C@@]5(C)CC[C@H](OC(=O)CC(C)(C)C(=O)O)C(C)(C)C5CC[C@@]4(C)[C@]3(C)CC[C@@]2(NC(=O)NCc2ncccn2)CC1=O	IIIB	30% human serum		MT-2	RT activity	<0.199 µM
CCC1=C(C(=O)OCC2CCCCC2)[C@H](c2ccc(OC(=O)[C@H](C)[NH3+])cc2)NC(=O)N1				CEM	p24 / ELISA	≤1 µM
C=CCO/N=C/c1cc(NC(=S)c2ccoc2C)ccc1Cl	RF			CEM + CEM-SS	cytopathic effect / XTT	0.011 µM
CCC1=C(C(=O)OCC2CCCCC2)C(c2cc(C(F)(F)F)cc(C(F)(F)F)c2)NC(=O)N1				CEM	p24 / ELISA	≤1 µM
Cc1nc2ccccc2c(-c2cccc(O)c2)c1C(OC(C)C)C(=O)O				C8166	luciferase / reporter gene	<20 µM
C[Si](C)(C)C#CC1=C(C(=O)OCC2CCCCC2)C(c2cccc([N+](=O)[O-])c2)NC(=O)N1				CEM	p24 / ELISA	1–5 µM
CC(C)C1=C2[C@H]3CC[C@@H]4[C@@]5(C)CC[C@H](OC(=O)CC(C)(C)C(=O)O)C(C)(C)[C@@H]5CC[C@@]4(C)[C@]3(C)CC[C@@]2(NC(=O)c2c[nH]ccc2=O)CC1=O	IIIB	30% human serum		MT-2	RT activity	<0.199 µM
COC(C(=O)O)c1c(C)nc2ccc(Cl)cc2c1-c1ccc2ccn(C)c2c1				C8166	luciferase / reporter gene	<20 µM
Cc1ncc(-c2ccc(N(C)CCOc3ccc(C#N)cc3)cn2)c(N2CCC(C)(C)CC2)c1[C@H](OC(C)(C)C)C(=O)O	NL4-3			MT-2	luminescence	0.0079 µM
CC(C)C1=C2[C@H]3CC[C@@H]4[C@@]5(C)CC[C@H](OC(=O)CC(C)(C)C(=O)O)C(C)(C)[C@@H]5CC[C@@]4(C)[C@]3(C)CC[C@@]2(N)CC1=O	IIIB			MT-2	RT activity	<0.199 µM
CCC1=C(C(=O)Cc2ccccc2)[C@H](c2ccc(O)c(Cl)c2)NC(=O)N1				CEM	p24 / ELISA	>5 µM
CC(C)C1=C2C3CCC4[C@@]5(C)CC[C@H](OC(=O)CC(C)(C)C(=O)O)C(C)(C)C5CC[C@@]4(C)[C@]3(C)CC[C@@]2(NC(=O)OCCC2CC2)CC1=O	IIIB	30% human serum		MT-2	RT activity	<0.199 µM
Cc1ccc(OCCOc2ncc(-c3cnc(C)c([C@H](OC(C)(C)C)C(=O)O)c3N3CCC(C)(C)CC3)cc2F)cc1	NL4-3			MT-2	luminescence	0.001 µM
Cc1ccsc1C(=S)Nc1ccc(Cl)c(C(=O)OC(C(C)C)C(C)C)c1	RF			CEM + CEM-SS	cytopathic effect / XTT	0.159 µM
CCC1=C(C(O)c2ccccc2)C(c2cccc(OC)c2)NC(=O)N1				CEM	p24 / ELISA	>5 µM
COc1cc(F)ccc1OCCNc1ccc(-c2cnc(C)c([C@H](OC(C)(C)C)C(=O)O)c2N2CCC(C)(C)CC2)cn1	NL4-3			MT-2	luminescence	0.0013 µM
Cc1occc1C(=S)Nc1ccc(Cl)c(/C=N/OC(C)(C)C)c1	IIIB			CEM + CEM-SS	cytopathic effect / XTT	0.2 µM
Cc1ncc(-c2cnc(OC3Cc4ccccc4C3)c(F)c2)c(N2CCC(C)(C)CC2)c1[C@H](OC(C)(C)C)C(=O)O	NL4-3			MT-2	luminescence	0.0061 µM
CC=CCOc1cc(NC(=S)c2ccoc2C)ccc1OC	NL4-3		RT-K101E	CEM + CEM-SS	cytopathic effect / XTT	0.6 µM
CCC1=C(C(=O)OCC2CCCCC2)C(c2ccc([N+](=O)[O-])c(Cl)c2)NC(=O)N1				CEM	p24 / ELISA	≤1 µM
CC(C)C1=C2C3CCC4[C@@]5(C)CC[C@H](OC(=O)CC(C)(C)C(=O)O)C(C)(C)C5CC[C@@]4(C)[C@]3(C)CC[C@@]2(NC(=O)c2nnc(-c3ccccc3)o2)CC1=O	IIIB	30% human serum		MT-2	RT activity	<0.199 µM
Cc1occc1C(=S)Nc1ccc(Cl)c(C(=O)OCC2CC2)c1	4xAZT/L100I(RT-D67N K70R T215Y K219Q L100I)		RT-D67N K70R L100I T215Y K219Q	CEM + CEM-SS	cytopathic effect / XTT	2 µM

A second listing of 3 rows from above:

smiles	strain or isolate	setting	mutations	cells	method	value
CCC1=C(C(=O)OCC2CCCCC2)C(c2cccc(C(=O)O)c2)NC(=O)N1				CEM	p24 / ELISA	>5 µM
N#CC1=CC2Nc3ccccc3C2N(c2ccc([N+](=O)[O-])cc2)C1=O	2AG			HeLa	GFP / fluorescence	1.01 µM
CC=CCOc1cc(NC(=S)c2ccoc2C)ccc1OC	NL4-3		RT-K101E	CEM + CEM-SS	cytopathic effect / XTT	0.6 µM